Reference: PMC12714728 (npj Viruses, 2025)

Target: hemagglutinin (HA) ectodomain of A/Vietnam/1203/2004 (H5N1) (influenza A virus A/Vietnam/1203/2004 …, biotin on the BirA site)
Settings: both partners purified

**Q.** How did the koff turn out when CYRDPLGVAGEMC (disulfide between the two Cys (sidechain-sidechain cyclization)) [cyclic peptide CP13] was run?
**A.** 2.52 s⁻¹
